Compound potency records, mixed from different reports. Data source: NIAID ChemDB in PubChem.

Common to all: enzyme or target tests; organism: Hepatitis C virus; target: HCV NS3 protease

Two numbers with a dash give a range or band.

{"compound": "C=CC[C@H](NC(=O)[C@@H]1C[C@@H](CCCc2cccc3ccccc23)c2c(Cl)nc(NCc3cccc(C(F)(F)F)c3)c(=O)n21)B1OC2CC3CC(C3(C)C)[C@@]2(C)O1", "measure": "IC50", "value": "0.02 µM"}
{"compound": "COc1ccc2c(O[C@@H]3CC4C(=O)NC5(C(=O)O)CC5/C=C\\CCCCCC(NC(=O)OC(C)(C)C)C(=O)N4C3)ccnc2c1", "measure": "IC50", "value": "0.024 µM"}
{"compound": "CC[C@H](NC(=O)[C@@H](NC(=O)[C@@H](NC(=O)[C@H](CC(C)C)NC(=O)[C@@H](CCC(=O)O)NC(=O)[C@H](CC(=O)O)NC(C)=O)[C@@H](C)CC)C1CCCCC1)C(=O)/C=C/c1ccccc1", "measure": "IC50", "value": "<1 µM"}
{"compound": "CCOC(=O)N1C(=O)/C(=C(\\C)c2ccc(NS(=O)(=O)c3ccc(-c4ccc(S(=O)(=O)NCCNC(=O)OC(C)(C)C)cc4)cc3)cc2)SC1=S", "measure": "IC50", "value": "<0.005 µM"}
{"compound": "c1ccc(CNc2nc(-c3ccccc3)[n+](-c3ccccc3)s2)cc1", "measure": "IC50", "value": "25 µM"}
{"compound": "CC[C@H](NC(=O)[C@@H](NC(=O)[C@@H](NC(=O)[C@H](CC(C)C)NC(=O)[C@@H](CCC(=O)O)NC(=O)[C@H](CC(=O)O)NC(C)=O)[C@@H](C)CC)C1CCCCC1)C(=O)CCCCCC(C)C", "measure": "IC50", "value": "1–10 µM"}
{"compound": "CC[C@H](NC(C)=O)C(=O)N[C@@H](CCC(=O)O)C(=O)N[C@H](C(=O)N[C@@H](CCC(=O)O)C(=O)N[C@@H](CC1CCCCC1)C(=O)N[C@@H](CC(F)F)C(=O)O)C(c1ccccc1)c1ccccc1", "measure": "Ki", "value": "0.03 µM"}
{"compound": "CC[C@H](NC(=O)[C@@H](NC(=O)[C@@H](NC(=O)[C@H](CC(C)C)NC(=O)[C@@H](CCC(=O)O)NC(=O)[C@H](CC(=O)O)NC(C)=O)[C@@H](C)CC)C1CCCCC1)C(=O)/C=C/c1ccc(OC)cc1", "measure": "IC50", "value": "<1 µM"}
{"compound": "CSCC[C@H](NC(=O)[C@H](CCC(=O)O)NC(=O)[C@@H](N)CC(=O)O)C(=O)N[C@@H](CCC(=O)O)C(=O)N[C@@H](CCC(=O)O)C(=O)N[C@@H](CS)C(N)=O", "measure": "Ki", "value": "80 µM"}
{"compound": "CC[C@H](C)[C@H](NC(=O)OCc1ccccc1)C(=O)N[C@@H](CC(C)C)C(=O)N[C@@H](CC(F)F)C(=O)C(=O)O", "measure": "Ki", "value": "17 µM"}
{"compound": "COc1ccc2c(O[C@@H]3CC4C(=O)N[C@]5(C(=O)O)C[C@@H]5/C=C\\CCCCCC(NC(=O)OC(C)(C)C)C(=O)N4C3)cc(-c3ccccc3)nc2c1", "measure": "IC50", "value": "2 µM"}
{"compound": "CC[C@H](NC(=O)[C@@H](NC(=O)[C@@H](NC(=O)[C@H](CC(C)C)NC(=O)[C@@H](CCC(=O)O)NC(=O)[C@H](CC(=O)O)NC(C)=O)[C@@H](C)CC)C1CCCCC1)C(O)/C=C/c1nccs1", "measure": "IC50", "value": ">10 µM"}
{"compound": "CC(=O)N[C@@H](C(=O)O)C(=O)N[C@@H](CCC(=O)O)C(=O)N[C@H](C(=O)N[C@@H](CCC(=O)O)C(=O)N[C@@H](CC1CCCCC1)C(=O)N[C@@H](CS)C(=O)O)C(c1ccccc1)c1ccccc1", "measure": "Ki", "value": "0.04 µM"}
{"compound": "CCCC(=O)[C@H](CC)NC(=O)[C@@H](NC(=O)[C@@H](NC(=O)[C@H](CC(C)C)NC(=O)[C@@H](CCC(=O)O)NC(=O)[C@H](CC(=O)O)NC(C)=O)[C@@H](C)CC)C1CCCCC1", "measure": "IC50", "value": "1–10 µM"}
{"compound": "CCC[C@H](NC(=O)C1CCCN1C(=O)[C@@H](NC(=O)[C@@H](NC(=O)[C@H](CCC(=O)O)NC(=O)[C@@H](N)CC(=O)O)C(C)C)C(C)C)B1OC2CC3CC(C3(C)C)[C@]2(C)O1", "measure": "Ki", "value": "0.006 µM"}
{"compound": "CC(=O)N[C@H](C(=O)N[C@@H](CCC(=O)OC(C)(C)C)C(=O)N[C@@H](CC1CCCCC1)C(=O)NC(CC(F)F)C(=O)C(=O)O)C(c1ccccc1)c1ccccc1", "measure": "Ki", "value": "4.6 µM"}
{"compound": "CC(=O)N[C@@H](C(=O)O)C(=O)N[C@@H](CCC(=O)O)C(=O)N[C@H](C(=O)N[C@@H](CCC(=O)O)C(=O)N[C@@H](CC1CCCCC1)C(=O)N[C@@H](CC(F)F)C(=O)C(=O)O)C(c1ccccc1)c1ccccc1", "measure": "Ki", "value": "0.00001 µM"}
{"compound": "CC[C@H](NC(=O)[C@@H](NC(=O)[C@@H](NC(=O)[C@H](CC(C)C)NC(=O)[C@@H](CCC(=O)O)NC(=O)[C@H](CC(=O)O)NC(C)=O)[C@@H](C)CC)C1CCCCC1)C(O)/C=C/CCCC(C)C", "measure": "IC50", "value": "<10 µM"}
{"compound": "COc1ccc2c(O[C@@H]3C[C@@H](C(=O)NC4(C(=O)O)CC4)N(C(=O)[C@@H](NC(=O)[C@@H](NC(C)=O)C4CCCCC4)C(C)C)C3)ccnc2c1", "measure": "IC50", "value": "1.4 µM"}
{"compound": "C/C=C/C(=O)[C@H](CC)NC(=O)[C@@H](NC(=O)[C@@H](NC(=O)[C@H](CC(C)C)NC(=O)[C@@H](CCC(=O)O)NC(=O)[C@H](CC(=O)O)NC(C)=O)[C@@H](C)CC)C1CCCCC1", "measure": "IC50", "value": "<1 µM"}
{"compound": "C=C[C@H]1CC1(NC(=O)[C@@H]1C[C@@H](Oc2cc(-c3ccccc3)nc3cc(OC)ccc23)CN1C(=O)[C@@H](NC(=O)OC(C)(C)C)C(C)C)C(=O)O", "measure": "IC50", "value": "0.03 µM"}

The first 2 rows once more:

compound | measure | value
C=CC[C@H](NC(=O)[C@@H]1C[C@@H](CCCc2cccc3ccccc23)c2c(Cl)nc(NCc3cccc(C(F)(F)F)c3)c(=O)n21)B1OC2CC3CC(C3(C)C)[C@@]2(C)O1 | IC50 | 0.02 µM
COc1ccc2c(O[C@@H]3CC4C(=O)NC5(C(=O)O)CC5/C=C\CCCCCC(NC(=O)OC(C)(C)C)C(=O)N4C3)ccnc2c1 | IC50 | 0.024 µM

ICn: concentration for n% inhibition. Neighbouring rows are from separate reports.